Data as given in PubChem BioAssay AID624099 (ICCB-Longwood, 2012)

- Screen: 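Host factors E2 relies on to silence an HPV18 LCR reporter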 (primary screen)
- System: human C33A cervical carcinoma cells (HPV-negative) stably expressing BPV1 E2 and an HPV18 LCR luciferase reporter
- Reagent: siRNA pool against human genes, 40 nM
- Time to read-out: 72 h
- Read-out: 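Per-well luciferase luminescence, z-scored on each plate against the plate mean and SD with control wells left out, then averaged across three replicate plates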
- Direction: mean z-score and z-score: higher = stronger reporter signal, weaker E2 silencing
- Hit rule: 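Hit if mean z-score reaches 2 and two or more of three replicate z-scores also reach 2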
This is an unselected part of about 21,000 reagents. Of all reagents, 497 (2.4%) are marked active. 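Higher z means weaker E2 silencing; only reporter increases were scored, and knock-downs that hurt cell survival may mask genuine repressor factors.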 A number with no mark means an inactive call. Reagents against one gene are numbered here. No sequences are given here.

For CEP170P1 (GeneID 645455), how do the results read?
mean z-score: 0.4; z-score, replicate A: 0.74; z-score, replicate B: 0.04; z-score, replicate C: 0.43

Which result is listed for FEZF1 (GeneID 389549) #1?
mean z-score: -0.46; z-score, replicate A: -0.62; z-score, replicate B: -0.21; z-score, replicate C: -0.56

How did the screen score FEZF1 (GeneID 389549) #2?
mean z-score: -0.59; z-score, replicate A: -0.67; z-score, replicate B: 0.03; z-score, replicate C: -1.14

With LOC389764 (retired record) (GeneID 389764), what does the deposit list?
mean z-score: 0.39; z-score, replicate A: 0.65; z-score, replicate B: 0.08; z-score, replicate C: 0.43

What is on record for PXYLP1 (GeneID 92370)?
mean z-score: -0.99; z-score, replicate A: -0.78; z-score, replicate B: -0.91; z-score, replicate C: -1.29

With SNUPN (GeneID 10073), what does the deposit list?
mean z-score: 2.26 (active); z-score, replicate A: 1.86; z-score, replicate B: 2.12; z-score, replicate C: 2.8

How did the screen score AARS1 (GeneID 16)?
mean z-score: 1.57; z-score, replicate A: 1.53; z-score, replicate B: 1.54; z-score, replicate C: 1.63

How did the screen score LOC388623 (retired record) (GeneID 388623)?
mean z-score: -0.27; z-score, replicate A: 0.22; z-score, replicate B: -0.26; z-score, replicate C: -0.76

For ARSK (GeneID 153642), what does the deposit list?
mean z-score: -0.73; z-score, replicate A: -0.24; z-score, replicate B: -0.97; z-score, replicate C: -0.98

With ENTPD4 (GeneID 9583), what was measured?
mean z-score: -0.93; z-score, replicate A: -0.97; z-score, replicate B: -1.02; z-score, replicate C: -0.8

With TICAM2 (GeneID 353376), what was measured?
mean z-score: -0.51; z-score, replicate B: -0.41; z-score, replicate C: -0.61

What is on record for COLEC11 (GeneID 78989)?
mean z-score: 0.23; z-score, replicate A: 0.03; z-score, replicate B: 0.35; z-score, replicate C: 0.31

For RARB (GeneID 5915), what does the deposit list?
mean z-score: 1.06; z-score, replicate A: 1.1; z-score, replicate B: 0.99; z-score, replicate C: 1.09

How did the screen score MRPL19 (GeneID 9801)?
mean z-score: 0.24; z-score, replicate A: 0.07; z-score, replicate B: 0.16; z-score, replicate C: 0.49

With PARD3B (GeneID 117583), what does the deposit list?
mean z-score: -0.05; z-score, replicate A: -0.28; z-score, replicate B: -0.05; z-score, replicate C: 0.18

For TNFRSF14-AS1 (GeneID 115110), how do the results read?
mean z-score: 0.3; z-score, replicate A: 0.15; z-score, replicate B: -0.01; z-score, replicate C: 0.76

What did the screen give for GABRR1 (GeneID 2569)?
mean z-score: 1.83; z-score, replicate A: 2.29; z-score, replicate B: 1.82; z-score, replicate C: 1.38

With PSAT1 (GeneID 29968), what was measured?
mean z-score: -1.23; z-score, replicate A: -1.31; z-score, replicate B: -1.68; z-score, replicate C: -0.71

For PSPC1 (GeneID 55269), how do the results read?
mean z-score: -0.29; z-score, replicate A: -0.22; z-score, replicate B: -0.11; z-score, replicate C: -0.55

How did the screen score RPS6KC1 (GeneID 26750)?
mean z-score: -1.04; z-score, replicate A: -0.71; z-score, replicate B: -1.23; z-score, replicate C: -1.18

With ARHGEF15 (GeneID 22899), what does the deposit list?
mean z-score: 0.13; z-score, replicate A: -0.01; z-score, replicate B: 0.11; z-score, replicate C: 0.27
